Pooled drug test results. Numbers come from NIAID ChemDB, via PubChem.

Shared fields: toxicity to cultured cells; cells: MT-4; endpoint: CC50

Rows are shuffled and stem from different studies. CCn: concentration that lowers growth or viability of the cells by n%.

SMILES	result
Fc1cccc(F)c1CCNC(=S)Nc1nccs1	33 µM
C=C1[C@H](n2cnc3c(N)ncnc32)O[C@@H]1CO	>100 µg/mL
S=C(NCCc1ccccc1)Nc1ncc(Cl)s1	15 µM
Cc1ccc(C(C)C)c2oc(=O)c(C(=O)/C=C/c3ccccc3)c(O)c12	13.2 µg/mL
Cc1cn([C@H]2O[C@@H](CO)C[C@@H]2F)c(=O)[nH]c1=O	>100 µM
Cc1ccccc1CCNC(=S)Nc1nccs1	72 µM
Cc1cn([C@H]2O[C@@H](CO)C[C@@H]2O)c(=O)[nH]c1=O	>100 µM
O=CC(OC(=O)c1cc(O)c(O)c(O)c1Oc1cc2c(c(O)c1O)-c1c(cc(O)c(O)c1O)C(=O)OC(C(OC(=O)c1cc(O)c(O)c(O)c1)C(C=O)OC(=O)c1cc(O)c(O)c(O)c1)C(O)COC2=O)C(OC(=O)c1cc(O)c(O)c(O)c1)C1OC(=O)c2cc(O)c(O)c(O)c2-c2c(cc(O)c(O)c2O)C(=O)OCC1O	34.6 µg/mL
COc1ccc(/C=C/C(=O)c2c(O)c3c(C)ccc(C(C)C)c3oc2=O)cc1OC	62 µg/mL
Nc1ncnc2c1ncn2[C@@H]1O[C@H](CO)[C@H]1N	>100 µg/mL
O=CC(OC(=O)c1cc(O)c(O)c(O)c1Oc1cc2c(c(O)c1O)-c1c(cc(O)c(O)c1O)C(=O)COC1OC(OC(=O)c3cc(O)c(O)c(O)c3Oc3cc4c(=O)oc5c(O)c(O)cc6c(=O)oc(c3O)c4c56)C(OC(=O)c3cc(O)c(O)c(O)c3)C(OC(=O)c3cc(O)c(O)c(O)c3)C1OC2=O)C(OC(=O)c1cc(O)c(O)c(O)c1)C(O)C(O)CO	52.8 µg/mL
C=C(C)[C@@H]1CC[C@]2(C(=O)OC[C@H]3OC(n4cc(C)c(OC(=O)OCC)nc4=O)C[C@@H]3N=[N+]=[N-])CC[C@]3(C)[C@H](CC[C@@H]4[C@@]5(C)CC[C@H](O)C(C)(C)[C@@H]5CC[C@]43C)[C@@H]12	35 µM
COc1cc(/C=C/C(=O)c2c(O)c3cc(Cl)c(C)cc3oc2=O)ccc1O	6.64 µg/mL
FC(F)(F)c1csc(NC(=S)NCCc2ccccc2)n1	9 µM
C=C(C)[C@@H]1CC[C@]2(C(=O)O)CC[C@]3(C)[C@H](CC[C@@H]4[C@@]5(C)CC[C@H](OC(=O)CCC(=O)OC[C@H]6OC(n7cc(C)c(=O)[nH]c7=O)C[C@@H]6N=[N+]=[N-])C(C)(C)[C@@H]5CC[C@]43C)[C@@H]12	>50 µM
O=C(O)/C(=C\c1ccccc1)n1nnc2ccccc21	>100 µM
O=C1O[C@H]2[C@H]3OC(=O)c4cc(O)c(O)c(O)c4-c4c(cc(Oc5c(C(=O)O[C@@H]6O[C@@H]7COC(=O)c8cc(O)c(O)c(O)c8-c8c(cc(O)c(O)c8O)C(=O)O[C@H]7[C@H](OC(=O)c7cc(O)c(O)c(O)c7)[C@H]6OC(=O)c6cc(O)c(O)c(O)c6)cc(O)c(O)c5O)c(O)c4O)C(=O)OC[C@H]2O[C@H](OC(=O)c2cc(O)c(O)c(O)c2)[C@H]3OC(=O)c2cc(O)c(O)c3c2C2C1=CC(=O)C(O)(O)C2(O)O3	37.4 µg/mL
O=C(O)/C(=C\c1ccc(Cl)cc1)n1nnc2ccccc21	>100 µM
Cc1cc2oc(=O)c(C(=O)/C=C/c3ccccc3)c(O)c2cc1Cl	3.64 µg/mL
COc1ccccc1CCNC(=S)Nc1nccs1	102 µM
[N-]=[N+]=NC[C@H]1[C@H](n2cnc3c(N)ncnc32)O[C@@H]1CO	>100 µg/mL
Cc1cc2oc(=O)c(C(=O)/C=C/c3cccc([N+](=O)[O-])c3)c(O)c2cc1Cl	66.5 µg/mL
N#C/C(=C\c1ccco1)n1nnc2ccccc21	89 µM
COc1cc(/C=C/C(=O)c2c(O)c3c(C)ccc(C(C)C)c3oc2=O)ccc1O	14.2 µg/mL
N#C/C(=C/c1cccc(Cl)c1)n1nnc2ccccc21	3 µM
O=C(O)C[C@H]1C(=O)O[C@H]2[C@H](OC(=O)c3cc(O)c(O)c(O)c3)[C@@H](OC(=O)c3cc(O)c(O)c4c3[C@H]1[C@H](O)C(=O)O4)[C@H](OC(=O)c1cc(O)c(O)c(O)c1)O[C@@H]2COC(=O)c1cc(O)c(O)c(O)c1	19.5 µg/mL
N#C/C(=C\c1ccc(C(F)(F)F)cc1)n1nnc2ccccc21	3.5 µM
Fc1cccc(Cl)c1CCNC(=S)Nc1nccs1	111 µM
Oc1cc(O)c2c(c1)O[C@H](c1cc(O)c(O)c(O)c1)[C@H](O)C2	14.6 µg/mL
S=C(NCCc1ccccc1)Nc1ncccc1Br	297 µM
Cc1cc2oc(=O)c(C(=O)/C=C/c3cccc(Oc4ccccc4)c3)c(O)c2cc1Cl	60.4 µg/mL
CN(CCc1ccccc1)C(=S)Nc1nccs1	29 µM
O=c1[nH]cnc2c1ncn2[C@H]1C[C@@H](CO)O1	>100 µg/mL
O=C(OC1C(OC(=O)c2cc(O)c(O)c(O)c2Oc2cc3c(c(O)c2O)-c2c(cc(O)c(O)c2O)C(=O)OCC2OC(OC(=O)c4cc(O)c(O)c(O)c4O)C(OC(=O)c4cc(O)c(O)c(O)c4)C(OC(=O)c4cc(O)c(O)c(O)c4)C2OC3=O)OC2COC(=O)c3ccc(O)c(O)c3-c3c(cc(O)c(O)c3O)C(=O)OC2C1OC(=O)c1cc(O)c(O)c(O)c1)c1cc(O)c(O)c(O)c1	70.3 µg/mL
[N-]=[N+]=Nc1ccccc1CCNC(=S)Nc1nccs1	92 µM